Results published in the supplement of paper PMC9931576.
Human monoclonal antibodies against the spike receptor-binding domain (heavy:light variable regions). IC50 against pseudoviruses bearing the spike of naturally observed variants; lower = stronger; >10 µg/ml means not reached at the top dose. No active / inactive call. The stated detection limit is 0.0005 µg/ml; values near or below 0.001 µg/ml lie at the floor of the assay.

B1: BD55-5502 (protein)
chain 1: EVQLVESGGGLVQPGGSLRLSCTASGFTFTTYAMHWVRQAPGKGLEFVSSITSDGGGAFYADSVEGRFTISRDNSKNTLYLQMGSLRTEDMAVYYCAREGPKIDVTLDYWGQGTLVTVSS
chain 2: DIQMTQSPSSLSASVGDRVTITCRASQSITKYLNWYQHKPGRPPKLLISGASSLQRGVPSRFSGSGSGTDFTLTISSLQPEDFATYYCQQSYSSPQYTFGQGTKLEIK
B2: BD55-5591 (protein)
chain 1: QVQLLQSGAEVKKPGSSVTVSCKASGGTFTNSAINWVRQAPGQGLEWMGGVIPIFGPTNYAEKFQGRVTITADESTSTAYLDLSSLRSEDTAVYYCARAHCGDCTPPRGYYFYYFGMDVWGQGTTVTVSS
chain 2: SYELTQPPSVSVSPGQTARITCSGDALSNQYAYWYQQRPGQAPVLLMYKDNERPSGIPERFSGSNSGTTVTLTVSGVQAEDEADYYCQSADTTSTYVVFGGGTKLTVL
B3: BD55-5540 (protein)
chain 1: QVQLVQSGAEVKKPGSSVKVSCQASGGTFSSYAIIWVRQAPGQGLEWMGGLIPIFGTTTNAQEFQGRVTLTADGVTDTAYMELRSLGSDDTAVYYCARSSHTSTWDPYLDHWGQGTLVIVSS
chain 2: QSVVTQPPSASGTPGQRVTVSCSGSSSNIGSNTVNWYQQVPGTAPKLLIYTNNQRPSGVPDRFSGSKSGTSASLAISGLQSEDEADYYCAAWDDSLNAVVFGGGTKLTVL
B4: BD55-5501 (protein)
chain 1: QVQLVQSGSELKRPGASVKVSCKASGYSFTSNAMNWVRQAPGQGLEWMGWINTETGSPTYAQGFTGRFVFSLDTSVRTAYLQISSLKAEDTAVYYCASNIRFGEYCFDPWGQGTLVTVS
chain 2: DIQMTQSPSSVSASVGDRVTITCRAGLHFSSWVAWYQQKPGKAPKLLIYATSSLQSGVPSRFSGSGSGTDFTLTISSLQPEDFATYYCQQGSTFPLTFGGGTKVEIK
B5: BD55-5521 (protein)
chain 1: EVQLVESGGGLVQPGRSLRLSCAASGFTFEDYVIHWVRQPPGRGLEWVSRISWNSGIIDYADSVKGRFTISRDNAKNSLYLQMNSLRAEDTALYYCAKDMVVGYCSDGSCNDAFDVWGQGTMVTVSS
chain 2: QSVLTQPPSVSGAPGQRVTISCTGSSSNIGAGYDVHWYQKLPGTAPKLLIYGNSNRPSGVPDRFSGSKSGTSASLAITGLQADDEADYYCQSYDTSLSGRAMFGGGTKLTVL
B6: BD55-5566 (protein)
chain 1: EVQLVESGGGLVQPGRSLRLSCTVSGFTFGDHAMSWVRQAPGKGLEWVGFIRSKAFGGTTEYAASVRGRFTISRDDSKSIAYLQMISLKTADTGVYYCARDLTYGVYQYDSTVYFPGLDSWGQGALVTVSS
chain 2: DIVMTQTPLSLSVTPGQPASISCKSSQSLLHGDGKTYLYWYLQKAGQSPQLLIYEVSKRFSGVPDRFSGSGSGTDFTLKISRVEAEDVGVYYCMQSKQLRTFGQGTKVEIK
B7: BD55-5558 (protein)
chain 1: QITLKESGPTLVKPKQTLTLTCTFSGFSLKKNGVGVGWIRQPPGKALEWLSLIYWDDTKRYTPSLKTRLTVTGDTSKNQVVLTLTNVDPVDTATYFCAHRPDLDSDLIVVDAFDMWGQGTMVTVSS
chain 2: QSVLTQPPSASGTPGQRVTISCSGSSSNIGRNTVNWYQHLPGTAPKLLIYHNNHRPSGVPDRFSGSKSGTSASLAISGLQSEDEADYYCETWDDSLGGVVFGAGTRLTVL
B8: BD55-5495 (protein)
chain 1: EVQLVVSGGGLVQPGGSLRLSCAASGFTFSSYDMHWVRQAKGKGLEWVSAIGTAGDTYYADSVKGRFTISRENARTSLYLQMSRLRDGDTAVYYCVRGDFDSSGFVGWFDPWGQGTLVAVSS
chain 2: DFQMTQSPSSLSASVGDRVTITCRASQYINNYLNWYQQKPGKAPKLLIYAASSLQSGVPSRFSGSGSGRDFTLTISSLQPEDFATYYCQQSYATPPWTFGPGTKVDIK
B9: BD55-5550 (protein)
chain 1: EVQLVESGGNLVQPGGSLRLSCAASGFTFSRHAMHWVRQAPGKGLEYVSSISRDGGAKFYADSVKGRFTISRDNSKSTLSLQMGSLGAEDMAVYFCAREDLRSFDWSLDYWGQGTLVTVSS
chain 2: DIQMTQSPSSLSASVGDRVTITCRAGQSITTYLNWYQQKPGKAPKLLIYAASSLQSGVPSRFSGSGSGTDFTLTITNLQPEDFATYYCQQSYTSPMYTFGQGTKLEIK
B10: BD55-5517 (protein)
chain 1: EVQLVETGGGLIQPGGSLRLSCAASGFSVRSNYMTWVRQAPGKGLEWVSVIYSDGTTYYADSVKGRFTISRDNSKNTLYLQMNSLRAEDTAVYYCARVVSDAFDIWGQGTMVTVSS
chain 2: DIQMTQSPSTLSASVGDRVTITCRASQSLSRELAWYQQKPGKAPKLLIYMASILESGVPSRFSGSGSGTEFTLTISSLQPDDFATYYCQQYNRYSEMYTFGQGTKLEIK
B11: BD55-5589 (protein)
chain 1: QVTLKESGPVLVRPTETLTLTCTVSGFSLRNARMGVSWIRQPPGKALEWLAHIFSDDEYSYRTSLHTRLTLSKDTSKSQVVLTMTNMDPVDTATYFCARIYDTSGFYYFDYWGQGTLVTVSS
chain 2: DIQMTQSPSSLSASVGDRVTITCRASQSISMYLNWYQQRPGKAPNLLIYAASNLLSGVPSRFSGSGSGTDFTLTISSLQPEDFATYYCQQSYSTPPYTFGQGTKLEIK
B12: BD55-5579 (protein)
chain 1: EVQLVESGGGLVQPGGSLRLSCAASGFTFSSYPMHWVRQAPGKGLEYVSSITTDGGGAFYADSVKGRFTISRDNSKNTLYLQMGSLTVEDMAVYYCAREARGWSCYFDNWGQGTVVTVSS
chain 2: DIHMTQSPSSLSASVGDRVTITCRASQGISNSLAWYQQKPGKAPKLLLYAASRLESGVPSRFSGSGSGTDYTLTISSLQPEDFATYYCQQYYVTPMYTFGQGTKLEIK

target: SARS-CoV-2 Omicron BA.1 spike pseudovirus; experiment: pseudovirus neutralization IC50; higher = weaker neutralization
Method: (§1)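 Single-round VSV luciferase pseudovirus mixed with antibody dilutions for 1 h and put on Huh-7 cells for about a day; IC50 from the dose curve.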

First: B1
Second: B2
The “pseudovirus neutralization IC50” value of the first is higher: over 10 µg/mL for the first, 0.00316 µg/mL for the second.

B3 and B4 cannot be ordered by “pseudovirus neutralization IC50” value: over 10 µg/mL for the first, over 10 µg/mL for the second.

B5 and B6 cannot be ordered by “pseudovirus neutralization IC50” value: over 10 µg/mL for the first, over 10 µg/mL for the second.

First: B7
Second: B8
The “pseudovirus neutralization IC50” value of the first is lower: 0.016 µg/mL for the first, over 10 µg/mL for the second.

First: B9
Second: B10
The “pseudovirus neutralization IC50” value of the first is higher: over 10 µg/mL for the first, 3.62 µg/mL for the second.

B11 and B12 cannot be ordered by “pseudovirus neutralization IC50” value: over 10 µg/mL for the first, over 10 µg/mL for the second.

target: SARS-CoV-2 Omicron BA.2 spike pseudovirus; experiment: as above
Method: as §1

Going from B1 to B2, the “pseudovirus neutralization IC50” value falls from over 10 µg/mL to 0.0143 µg/mL.

B3 and B4 cannot be ordered by “pseudovirus neutralization IC50” value: over 10 µg/mL for the first, over 10 µg/mL for the second.

B5 and B6 cannot be ordered by “pseudovirus neutralization IC50” value: over 10 µg/mL for the first, over 10 µg/mL for the second.

B7 and B8 cannot be ordered by “pseudovirus neutralization IC50” value: over 10 µg/mL for the first, over 10 µg/mL for the second.

Compared with B9, B10 is lower in “pseudovirus neutralization IC50” value: over 10 µg/mL for the first, 7.38 µg/mL for the second.

B11 and B12 cannot be ordered by “pseudovirus neutralization IC50” value: over 10 µg/mL for the first, over 10 µg/mL for the second.

target: SARS-CoV-2 Omicron BA.2.75 spike pseudovirus; experiment: as above
Method: as §1

Going from B1 to B2, the “pseudovirus neutralization IC50” value falls from over 10 µg/mL to 0.0349 µg/mL.

B3 and B4 cannot be ordered by “pseudovirus neutralization IC50” value: over 10 µg/mL for the first, over 10 µg/mL for the second.

B5 and B6 cannot be ordered by “pseudovirus neutralization IC50” value: over 10 µg/mL for the first, over 10 µg/mL for the second.

B7 and B8 cannot be ordered by “pseudovirus neutralization IC50” value: over 10 µg/mL for the first, over 10 µg/mL for the second.

Compared with B9, B10 is lower in “pseudovirus neutralization IC50” value: over 10 µg/mL for the first, 4.06 µg/mL for the second.

B11 and B12 cannot be ordered by “pseudovirus neutralization IC50” value: over 10 µg/mL for the first, over 10 µg/mL for the second.

target: SARS-CoV-2 Omicron BA.5 spike pseudovirus; experiment: as above
Method: as §1

Going from B1 to B2, the “pseudovirus neutralization IC50” value falls from over 10 µg/mL to 0.0167 µg/mL.

B3 and B4 cannot be ordered by “pseudovirus neutralization IC50” value: over 10 µg/mL for the first, over 10 µg/mL for the second.

B5 and B6 cannot be ordered by “pseudovirus neutralization IC50” value: over 10 µg/mL for the first, over 10 µg/mL for the second.

B7 and B8 cannot be ordered by “pseudovirus neutralization IC50” value: over 10 µg/mL for the first, over 10 µg/mL for the second.

Going from B9 to B10, the “pseudovirus neutralization IC50” value falls from over 10 µg/mL to 5.74 µg/mL.

B11 and B12 cannot be ordered by “pseudovirus neutralization IC50” value: over 10 µg/mL for the first, over 10 µg/mL for the second.

target: SARS-CoV-2 Omicron BQ.1.1 spike pseudovirus; experiment: as above
Method: as §1

B1 and B2 cannot be ordered by “pseudovirus neutralization IC50” value: over 10 µg/mL for the first, over 10 µg/mL for the second.

B3 and B4 cannot be ordered by “pseudovirus neutralization IC50” value: over 10 µg/mL for the first, over 10 µg/mL for the second.

B5 and B6 cannot be ordered by “pseudovirus neutralization IC50” value: over 10 µg/mL for the first, over 10 µg/mL for the second.

B7 and B8 cannot be ordered by “pseudovirus neutralization IC50” value: over 10 µg/mL for the first, over 10 µg/mL for the second.

First: B9
Second: B10
The “pseudovirus neutralization IC50” value of the first is higher: over 10 µg/mL for the first, 4.61 µg/mL for the second.

B11 and B12 cannot be ordered by “pseudovirus neutralization IC50” value: over 10 µg/mL for the first, over 10 µg/mL for the second.

target: SARS-CoV-2 Omicron XBB spike pseudovirus; experiment: as above
Method: as §1

B1 and B2 cannot be ordered by “pseudovirus neutralization IC50” value: over 10 µg/mL for the first, over 10 µg/mL for the second.

B3 and B4 cannot be ordered by “pseudovirus neutralization IC50” value: over 10 µg/mL for the first, over 10 µg/mL for the second.

B5 and B6 cannot be ordered by “pseudovirus neutralization IC50” value: over 10 µg/mL for the first, over 10 µg/mL for the second.

B7 and B8 cannot be ordered by “pseudovirus neutralization IC50” value: over 10 µg/mL for the first, over 10 µg/mL for the second.

First: B9
Second: B10
The “pseudovirus neutralization IC50” value of the first is higher: over 10 µg/mL for the first, 7.21 µg/mL for the second.

B11 and B12 cannot be ordered by “pseudovirus neutralization IC50” value: over 10 µg/mL for the first, over 10 µg/mL for the second.

target: SARS-CoV-2 early D614G spike pseudovirus; experiment: as above
Method: as §1

Compared with B1, B2 is lower in “pseudovirus neutralization IC50” value: over 10 µg/mL for the first, 0.00178 µg/mL for the second.

Compared with B3, B4 is lower in “pseudovirus neutralization IC50” value: over 10 µg/mL for the first, 0.0228 µg/mL for the second.

B5 and B6 are within 1.5-fold of each other in “pseudovirus neutralization IC50” value: 0.0807 µg/mL for the first, 0.0925 µg/mL for the second.

Going from B7 to B8, the “pseudovirus neutralization IC50” value rises from 0.0157 µg/mL to 1.31 µg/mL (83-fold).

Going from B9 to B10, the “pseudovirus neutralization IC50” value falls from over 10 µg/mL to 2.16 µg/mL.

B11 and B12 cannot be ordered by “pseudovirus neutralization IC50” value: over 10 µg/mL for the first, over 10 µg/mL for the second.
